{"source": "PubChem BioAssay AID651644", "about": "(National Center for Advancing Translational Sciences (NCATS), 2012)", "note": "This is a selection; strong and weak results do not stand in their true shares. Activity calls are given as the source filed them. Calls follow the shape of the dose curve; as a rule, active = well fitted falling curve with a large enough effect; inconclusive = small, poorly fitted or top-dose-only effect; inactive = no such curve, though single readings can be large or run the other way. % is scaled to controls: 0 for no effect and ±100 for the full control effect."}
{"assay": "qHTS Assay for Inhibitors of the HIV-1 protein Vpr; also: nearly all actives have a fitted effect of over 50% in size", "conditions": "S. pombe RE007 Vpr strain, BacTiter-Glo ATP luminescence, 24 h; at 92.2 µM (top of the series) unless noted"}
{"smiles": "O=[N+]([O-])c1cc([N+](=O)[O-])c(-c2ccn[nH]2)s1", "activity change, negative = less growth": "inactive: -11.2%"}
{"smiles": "CC(C)NC(=O)NP(=O)(Oc1ccccc1)Oc1ccccc1", "activity change, negative = less growth": "inactive: 12.3%"}
{"smiles": "COc1ccccc1OP(C)(=O)Nc1cc(Cl)ccc1C", "note": "(stereo unspecified)", "activity change, negative = less growth": "inactive: -2.45%"}
{"smiles": "CCN(CC)C(=S)SC(NC=O)C(Cl)(Cl)Cl", "note": "(stereo unspecified)", "activity change, negative = less growth": "inactive: 1.36%"}
{"smiles": "O=C(OC1CN2CCC1CC2)c1cccc2[nH]cnc12", "note": "(stereo unspecified)", "activity change, negative = less growth": "inactive: -9.78%"}
{"smiles": "COC(=O)C1(C)COP(=O)(N2CCCCCC2)OC1", "note": "(stereo unspecified)", "activity change, negative = less growth": "inactive: 0.246%"}
{"smiles": "CC(C)c1ccc(OP(=O)(Nc2ccccn2)Oc2ccccc2F)cc1", "note": "(stereo unspecified)", "activity change, negative = less growth": "inactive: 7.15%"}
{"smiles": "COc1ccccc1OP(C)(=O)Nc1ccc(C)cc1", "note": "(stereo unspecified)", "activity change, negative = less growth": "inactive: 0.863%"}
{"smiles": "ClCCSc1nnc(-c2cccnc2)o1", "activity change, negative = less growth": "inactive: -3.39%"}
{"smiles": "CCOC(=O)c1ccc(NP(C)(=O)Oc2ccccc2)cc1", "note": "(stereo unspecified)", "activity change, negative = less growth": "inactive: 15%"}
{"smiles": "O=[N+]([O-])c1ccc2c(c1)C=Nc1ccccc1O2", "activity change, negative = less growth": "inactive: -7.31%"}
{"smiles": "Cc1ccc2nc3c(c(C)c2c1)CC(C(Cl)Cl)S3", "note": "(stereo unspecified)", "activity change, negative = less growth": "inactive: -1%"}
{"smiles": "Cc1cccc(C)c1OP(C)(N)=O", "note": "(stereo unspecified)", "activity change, negative = less growth": "inactive: 13.3%"}
{"smiles": "Cc1ccc(OP(=O)(Nc2ccc([N+](=O)[O-])cn2)Oc2ccc(C)cc2)cc1", "activity change, negative = less growth": "inactive: -8.53%"}
{"smiles": "[N-]=[N+]=NC1CCCCC1NC(=O)c1cc([N+](=O)[O-])cc([N+](=O)[O-])c1", "note": "(stereo unspecified)", "activity change, negative = less growth": "inactive: -14.2%"}
{"smiles": "CC(C)(C)c1ccc(OP(C)(=O)Nc2ccc(SC(F)(F)F)cc2)cc1", "note": "(stereo unspecified)", "activity change, negative = less growth": "inactive: 0.523%"}
{"smiles": "O=[N+]([O-])c1ccc(-c2cc([N+](=O)[O-])c(O)c([N+](=O)[O-])c2)cc1", "activity change, negative = less growth": "inactive: 1.6%"}
{"smiles": "COc1cc(C(=O)NCC2(N3CCOCC3)CCCCC2)ccc1OCC(C)C", "activity change, negative = less growth": "inactive: -1.66%"}
{"smiles": "C[As](=O)(O)c1cccc(C(=O)O)c1", "activity change, negative = less growth": "inactive: -2.25%"}
{"smiles": "O=[As](O)(c1ccc(O)cc1)c1ccccc1O", "activity change, negative = less growth": "inactive: -7.42%"}
{"smiles": "O=[N+]([O-])c1cc([N+](=O)[O-])c(Nc2cccnc2)c([N+](=O)[O-])c1", "activity change, negative = less growth": "inactive: -24.2%"}
{"smiles": "COc1ccccc1-c1ccccn1.O=[N+]([O-])c1cc([N+](=O)[O-])c(O)c([N+](=O)[O-])c1", "activity change, negative = less growth": "inactive: -4.62%"}
{"smiles": "COc1ccc(N/C(=N/P(=O)(N2CCOCC2)N2CCOCC2)N2CCOCC2)cc1", "activity change, negative = less growth": "inactive: -20.7%"}
{"smiles": "O=[N+]([O-])c1cc(Oc2ccc([N+](=O)[O-])cc2C(F)(F)F)cc([N+](=O)[O-])c1", "activity change, negative = less growth": "inactive: 2.81%"}
{"smiles": "COc1cc(I)ccc1[As](=O)(O)O", "activity change, negative = less growth": "inactive: -6.35%"}
{"smiles": "COc1ccc2nc(NP(=O)(c3ccccc3)c3ccccc3)sc2c1", "activity change, negative = less growth": "inactive: 55.8%"}
{"smiles": "O=P1(N(CCCl)CCCl)OCCCN1CCCl", "note": "(stereo unspecified)", "activity change, negative = less growth": "inactive: 4.03%"}
{"smiles": "O=P1(N(CCCl)CCCl)Nc2ccccc2N1", "activity change, negative = less growth": "inactive: 14.9%"}
{"smiles": "Cc1cc(=O)[nH]c(N[N+](=O)[O-])n1", "activity change, negative = less growth": "inactive: 6.3%"}
{"smiles": "CCN(CC)CCCOC(=O)C(O)(c1ccccc1)c1ccccc1", "activity change, negative = less growth": "inactive: 15.3%"}
{"smiles": "O=C(OC1CN2CCC1CC2)C12CC3CC(CC(C3)C1)C2", "note": "(stereo unspecified)", "activity change, negative = less growth": "inactive: 1.29%"}
{"smiles": "Cc1c2c(nc3ccccc13)SC(C(Cl)Cl)C2", "note": "(stereo unspecified)", "activity change, negative = less growth": "inactive: -21.8%"}
{"smiles": "CP(=O)(Nc1ccccn1)Oc1ccc(Cl)cc1", "note": "(stereo unspecified)", "activity change, negative = less growth": "inactive: -0.589%"}
{"smiles": "CCC(C)N(CC(C)C)C(=S)SC(NC(C)=O)C(Cl)(Cl)Cl", "note": "(stereo unspecified)", "activity change, negative = less growth": "inactive: -8.42%"}
{"smiles": "O=[N+]([O-])c1cc([N+](=O)[O-])c(O)c([N+](=O)[O-])c1.c1ccc(Oc2ccncc2)cc1", "activity change, negative = less growth": "inactive: -19.1%"}
{"smiles": "CCOC(=O)c1ccc(NC(=O)C(C)(CCl)SC)cc1", "note": "(stereo unspecified)", "activity change, negative = less growth": "inactive: 10.5%"}
{"smiles": "CCOC(=O)c1ccc(NP(C)(=O)Oc2ccc(OC)cc2)cc1", "note": "(stereo unspecified)", "activity change, negative = less growth": "inactive: 14.3%"}
{"smiles": "CSc1ccc(Nc2c([N+](=O)[O-])cc([N+](=O)[O-])cc2[N+](=O)[O-])cc1", "activity change, negative = less growth": "inactive: -27.4%"}
{"smiles": "CCOP(C)(=S)SCC(=O)NC(C)C(=O)O", "note": "(stereo unspecified)", "activity change, negative = less growth": "inactive: -12.8%"}
{"smiles": "O=C(OC1CN2CCC1CC2)c1cccc([N+](=O)[O-])c1", "note": "(stereo unspecified)", "activity change, negative = less growth": "inactive: -1.96%"}
{"smiles": "O=C(Nc1ccncc1[N+](=O)[O-])c1ccc([N+](=O)[O-])cc1[N+](=O)[O-]", "activity change, negative = less growth": "inactive: -8.4%"}
{"smiles": "Cc1cc(C)cc(OP(C)(=O)Nc2ccc(SC(F)(F)F)cc2)c1", "note": "(stereo unspecified)", "activity change, negative = less growth": "inactive: -7.48%"}
{"smiles": "CP(=O)(NC(=O)Nc1ccccc1)Oc1ccccc1", "note": "(stereo unspecified)", "activity change, negative = less growth": "inactive: 8.52%"}
{"smiles": "O=C(COc1ccccc1)OC1CN2CCC1CC2", "note": "(stereo unspecified)", "activity change, negative = less growth": "inactive: -0.331%"}
{"smiles": "CCc1ccc(OP(C)(=O)N2CCN(c3ccc([N+](=O)[O-])cc3)CC2)cc1", "note": "(stereo unspecified)", "activity change, negative = less growth": "inactive: -6.53%"}
{"smiles": "COC(=O)C1(C)COP(=O)(N2CCCC2)OC1", "note": "(stereo unspecified)", "activity change, negative = less growth": "inactive: 7.35% [at 18.4 µM]"}
{"smiles": "CP(=O)(Oc1ccccc1)OC(c1ccccc1)C(F)(F)F", "note": "(stereo unspecified)", "activity change, negative = less growth": "inactive: 20.5%"}
{"smiles": "COP1(=S)c2c(C)nn(CCC#N)c2N=C(c2ccc(F)cc2)N1C", "note": "(stereo unspecified)", "activity change, negative = less growth": "inactive: 6.02%"}
{"smiles": "Cc1cccc(C)c1OP(C)(=O)Nc1ccc(SC(F)(F)F)cc1", "note": "(stereo unspecified)", "activity change, negative = less growth": "inactive: -2.17%"}
{"smiles": "CP(=O)(Nc1ccccc1Br)Oc1ccccc1", "note": "(stereo unspecified)", "activity change, negative = less growth": "inactive: 3.52%"}
{"smiles": "COc1ccccc1OP(C)(=O)Nc1ccccc1", "note": "(stereo unspecified)", "activity change, negative = less growth": "inactive: 1.55%"}
{"smiles": "Cc1cc(SC(NC=O)C(Cl)(Cl)Cl)ncn1", "note": "(stereo unspecified)", "activity change, negative = less growth": "inactive: 7.29%"}
{"smiles": "O=P(Nc1ccccn1)(c1cccc2ccccc12)c1cccc2ccccc12", "activity change, negative = less growth": "inactive: 2.44%"}
{"smiles": "CCOC(=O)Nc1cccc([As](=O)(O)O)c1", "activity change, negative = less growth": "inactive: -9.95%"}
{"smiles": "CP(=S)(Nn1cnnc1)Oc1ccccc1", "note": "(stereo unspecified)", "activity change, negative = less growth": "inactive: 12.6%"}
{"smiles": "Cc1cc(SC(NC(=O)c2ccccc2)C(Cl)(Cl)Cl)nc(C(C)C)n1", "note": "(stereo unspecified)", "activity change, negative = less growth": "inactive: 17.7%"}
{"smiles": "CCCCOc1ccc(C(=O)NCC2(N3CCCCC3)CCCCC2)cc1OC", "activity change, negative = less growth": "inactive: -18.7%"}
{"smiles": "COP(=O)(OC)N1CC1c1ccccc1", "note": "(stereo unspecified)", "activity change, negative = less growth": "inactive: -20%"}
{"smiles": "CC1CCNP(=O)(N(CCCl)CCCl)O1", "note": "(stereo unspecified)", "activity change, negative = less growth": "inactive: 0.128%"}
{"smiles": "O=C(O)C(=O)c1ccc(N(CCCl)CCCl)cc1.c1ccc(Nc2ccccc2)cc1", "activity change, negative = less growth": "inactive: -27.4%"}
{"smiles": "CCOC(=O)Nc1ccc([As](=O)(O)O)c(O)c1", "activity change, negative = less growth": "inactive: 6.28%"}
